The text below walks through data of article PMC12406196, “Anticoronavirus Activity of Uridine Glycoconjugates Containing a 1,2,3-Triazole Moiety” (Journal of Medicinal Chemistry, 2025).

Where “and” joins values, the source holds several entries; their conditions need not be identical. Equal values may be shown once. Bounds are passed on as bounds.

What all share (assay type): cell-based
Data set [1] relates to murine hepatitis virus strain A59 (MHV). As to the kind of experiment: MHV titer in medium of infected LR7 cells, plaque assay. Conditions: CC50/IC50 ratio. How it is done: LR7 or LLC-Mk2 cells were infected at a MOI of 0.01 with MHV and HCoV-NL63, respectively, and treated with selected compounds at a concentration ranging from 0 to 50 μM. Culture supernatants were collected 1 day (MHV) or 4 days (HCoV-NL63) after infection. Virus titer was determined by plaque assay.
(§1) The half-maximum inhibitory concentration value (IC50) indicating the concentration of compound needed to reduce virus titer by 50% in comparison to the control, was evaluated by GraphPad software (version 5.01, GraphPad Software, San Diego, CA).

Data set [2] deals with human coronavirus strain NL63 (HCoV-NL63). As to the kind of experiment: HCoV-NL63 titer in medium of infected LLC-Mk2 cells, foci-forming assay. The following applies: CC50/IC50 ratio. As for the experimental part:
LR7 or LLC-Mk2 cells were infected at a MOI of 0.01 with MHV and HCoV-NL63, respectively, and treated with selected compounds at a concentration ranging from 0 to 50 μM. Culture supernatants were collected 1 day (MHV) or 4 days (HCoV-NL63) after infection. […]
as §1

In a further data set the test system is SARS-CoV-2. Kind of data set: SARS-CoV-2 infectivity in supernatants of infected Vero cells, plaque assay. How it is done:
Vero cells were seeded in appropriate plates and allowed to reach an approximately 90% confluence. For infection, 200 μL of viral suspension containing 10^5 pfu (SARS-CoV-2 strain SARS-CoV-2/human/Czech Republic/951/2020) was added to each well and incubated for 2 h at 37 °C to allow virus adsorption. After the incubation, the viral medium was removed, and the wells were washed gently with phosphate-buffered saline (PBS). Test compounds were prepared in serial dilutions to final concentrations of 50, 25, 12.5, 6.25, 3.125, and 0 μM in the medium (DMEM containing 2% FBS). The compounds were added in quadruplicate to the infected cells. The plates were then incubated for 48 h at 37 °C. Following the 48 h treatment period, the supernatants were removed, and plaque assays in Vero E6 cells were performed to assess viral titers. Cells were fixed and stained 4 days after infection to visualize plaques, as described previously.
as §1

As for `CC(=O)OC[C@H]1O[C@@H](SCn2cc(COC[C@H]3O[C@@H](n4ccc(=O)[nH]c4=O)[C@H](O[Si](C)(C)C(C)(C)C)[C@@H]3O[Si](C)(C)C(C)(C)C)nn2)[C@H](OC(C)=O)[C@@H](OC(C)=O)[C@@H]1OC(C)=O` [Compound 24, 2′,3′-di-O-tert-Butyldimethylsilyl-5′-O-[(1-(2″,3″,4″,6″-tetra-O-acetyl-β-D-glucopyranosylthiomethyl)-1,2-3-triazol-4-yl)-methyl]-uridine], the “SI (MHV)” value in data set [1] was above 27.0. Besides, the “SI (HCoV-NL63)” value in data set [2] is 19.05 and 19.0. Moreover, the “SI (SARS-CoV-2)” value in the data set with SARS-CoV-2 is on record as above 5.3.
Take `CC(=O)OC[C@H]1O[C@@H](SCc2cn(C[C@H]3O[C@@H](n4ccc(=O)[nH]c4=O)[C@H](O[Si](C)(C)C(C)(C)C)[C@@H]3O[Si](C)(C)C(C)(C)C)nn2)[C@H](OC(C)=O)[C@@H](OC(C)=O)[C@@H]1OC(C)=O` [Compound 20, 2′,3′-di-O-tert-Butyldimethylsilyl-5′-deoxy-5′-[4-(2″,3″,4″,6″-tetra-O-acetyl-β-D-glucopyranosylthiomethyl)-1,2-3-triazol-1-yl]-uridine]: the “SI (MHV)” value in data set [1] is on record as above 8.8. In data set [2], the “SI (HCoV-NL63)” value is above 18.2. Moreover, the “SI (SARS-CoV-2)” value in the data set with SARS-CoV-2 is on record as above 6.2.
In the case of `CC(=O)OC[C@H]1O[C@@H](OCc2cn(C[C@H]3O[C@@H](n4ccc(=O)[nH]c4=O)[C@H](O[Si](C)(C)C(C)(C)C)[C@@H]3O[Si](C)(C)C(C)(C)C)nn2)[C@H](OC(C)=O)[C@@H](OC(C)=O)[C@H]1OC(C)=O` [Compound 15, 2′,3′-di-O-tert-Butyldimethylsilyl-5′-deoxy-5′-[4-(2″,3″,4″,6″-tetra-O-acetyl-β-D-galactopyranosyloxymethyl)-1,2-3-triazol-1-yl]-uridine], the “SI (MHV)” value in data set [1] was 17.7. Also, the “SI (HCoV-NL63)” value in data set [2] turned out to be 7.3. For the same compound, in the data set with SARS-CoV-2, the “SI (SARS-CoV-2)” value is above 3.6.
In the same order, the values of `CC(=O)OC[C@H]1O[C@@H](SCc2cn(C[C@H]3O[C@@H](n4ccc(=O)[nH]c4=O)[C@H](O[Si](C)(C)C(C)(C)C)[C@@H]3O[Si](C)(C)C(C)(C)C)nn2)[C@H](OC(C)=O)[C@@H](OC(C)=O)[C@H]1OC(C)=O` [Compound 21, 2′,3′-di-O-tert-Butyldimethylsilyl-5′-deoxy-5′-[4-(2″,3″,4″,6″-tetra-O-acetyl-β-D-galactopyranosylthiomethyl)-1,2-3-triazol-1-yl]-uridine] are 14.5, 8.2 and above 5.3.
